pIC50: −log10 of the molar value.
System: G70C H1N9 wt
Settings: read-out: IC50 G70C H1N9 wt

Compound: CCOC(=O)C1=C[C@@H](OC(CC)CC)[C@H](NC(C)=O)[C@@H](N)C1 [Oseltamivir]
- pIC50: 5.55

Compound: CC(=O)N[C@H]1[C@H]([C@H](O)[C@H](O)CO)OC(C(=O)O)=C[C@@H]1N=C(N)N [Zanamivir]
- pIC50: 5.57

— patent US9834534B2, “Neuraminidase inhibitor compounds, compositions and methods for the use thereof in anti-viral treatments” (THE UNIVERSITY OF BRITISH COLUMBIA, priority 2009, dated 2017)
